Results deposited as PubChem BioAssay AID504761 (Drosophila RNAi Screening Center, 2011)
The screen tested about 22,000 reagents; this is a random part of those that have a named target and a result. Of all reagents, 116 (0.52%) got an active call. 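Calls depend on retest data that are not deposited; infection was ranked per plate without normalising between plates; the unit of the infection score is not given.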 Raw values are not corrected between plates. Unmarked entries are inactive. Not all columns of the deposit are shown. Not given: the amount of reagent, the time to read-out.

- Aim: 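Fly genes whose silencing reduces dengue virus type 2 infection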 (primary screen)
- Cells: D.Mel-2 cells from Drosophila
- Knock-down reagent: long dsRNA against Drosophila genes
- Conditions: infection with dengue virus type 2; dose and infection time not stated
- Detection: 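Per well on two replicate plates, imaging gave the percent of cells positive for viral envelope protein, ranked by infection, and a nuclear count of cells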
- Direction: infection score: higher = more virus-infected cells; cell count: higher = more cells in the well
- Active means: 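Very low infection ranking in both replicate wells (chance probability at most 0.065), then a retest showing infection dropped 1.5-fold or more at p below 0.05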
- Calls: active = confirmed: knock-down lowers infection; inactive = not picked or not confirmed

CG5885 [DRSC02910] — infection score, replicate 1 = 9.2; cell count, replicate 1 = 6327
CG5885 [DRSC28761] — infection score, replicate 1 = 7.97; cell count, replicate 1 = 2447
Rip11 [DRSC20000] — infection score, replicate 1 = 3.88; cell count, replicate 1 = 6835
Rip11 [DRSC29902] — infection score, replicate 1 = 2.51; cell count, replicate 1 = 6660
comr [DRSC04138] — infection score, replicate 1 = 6.87; cell count, replicate 1 = 6522
msl-1 [DRSC03573] — infection score, replicate 1 = 3.36; cell count, replicate 1 = 5661
CG31635 [DRSC02273] — infection score, replicate 1 = 7.7; cell count, replicate 1 = 5285
Vha68-2 [DRSC02721] — infection score, replicate 1 = 19.2; cell count, replicate 1 = 5702
Vha68-2 [DRSC28637] — infection score, replicate 1 = 12.6; cell count, replicate 1 = 5501
CG13502 [DRSC04147] — infection score, replicate 1 = 4.08; cell count, replicate 1 = 7173
CG13502 [DRSC26374] — infection score, replicate 1 = 11.9; cell count, replicate 1 = 5399
CG8607 [DRSC11012] — infection score, replicate 1 = 3.45; cell count, replicate 1 = 6433
CG15345 (retired record) [DRSC18030] — infection score, replicate 1 = 0.62; cell count, replicate 1 = 6083
CG15345 (retired record) [DRSC22712] — infection score, replicate 1 = 12.7; cell count, replicate 1 = 6393
Acp26Ab [DRSC01856] — infection score, replicate 1 = 2.48; cell count, replicate 1 = 5936
Acp26Ab [DRSC28398] — cell count, replicate 1 = 384
Nse4 [DRSC02239] — infection score, replicate 1 = 5.9; cell count, replicate 1 = 6168
Nse4 [DRSC28337] — infection score, replicate 1 = 10.7; cell count, replicate 1 = 5989
chif [DRSC03508] — infection score, replicate 1 = 10.8; cell count, replicate 1 = 6233
CG17361 [DRSC23446] — infection score, replicate 1 = 2.74; cell count, replicate 1 = 6023
CG32160 (retired record) [DRSC22904] — infection score, replicate 1 = 3.98; cell count, replicate 1 = 6179

3 successive entries from above, quoted:
Acp26Ab [DRSC01856] — infection score, replicate 1 = 2.48; cell count, replicate 1 = 5936
Acp26Ab [DRSC28398] — cell count, replicate 1 = 384
Nse4 [DRSC02239] — infection score, replicate 1 = 5.9; cell count, replicate 1 = 6168
